B1: 5114_A19 (PGT-128) (antibody, V domains shown)
VH: QPQLQESGPTLVEASETLSLTCAVSGDSTAACNSFWGWVRQPPGKGLEWVGSLSHCASYWNRGWTYHNPSLKSRLTLALDTPKNLVFLKLNSVTAADTATYYCARFGGEVLRYTDWPKPAWVDLWGRGTLVTVSS
VL: QSALTQPPSASGSPGQSITISCTGTSNNFVSWYQQHAGKAPKLVIYDVNKRPSGVPDRFSGSKSGNTASLTVSGLQTDDEAVYYCGSLVGNWDVIFGGGTKLTVL
B2: 5147_N06 (PGT-130) (antibody, V domains shown)
VH: QVQLQESGPGLVKPAETLSLTCSVSGESINTGHYYWGWVRQVPGKGLEWIGHIHYTTAVLHNPSLKSRLTIKIYTLRNQITLRLSNVTAADTAVYHCVRSGGDILYYYEWQKPHWFSPWGPGIHVTVSS
VL: QSALTQPPSASGSLGQSVTISCNGTSSDIGGWNFVSWYQQFPGRAPRLIIFEVNKRPSGVPGRFSGSKSGNSASLTVSGLQSDDEGQYFCSSLFGRWDVVFGGGTKLTVL
B3: 5329_C19 (PGT-136) (antibody, V domains shown)
VH: QLQLQESGPGLVKPSETLSLTCTVSGGSMRGTDWGENDFHYGWIRQSSAKGLEWIGSIHWRGRTTHYKTSFRSRATLSIDTSNNRFSLTFSFVTAADTAVYYCARHKYHDIFRVVPVAGWFDPWGQGLLVTVSS
VL: EIVMTQSPPTLSVSPGETATLSCRASQNVKNNLAWYQLKPGQAPRLLIFDASSRAGGIPDRFSGSGYGTDFTLTVNSVQSEDFGDYFCQQYEEWPRTFGQGTKVDIK
B4: 5345_I01 (PGT-137) (antibody, V domains shown)
VH: EVHLEESGPGLVRPSETLSLTCTASGGSIRGGEWGDSDYHWGWVRHSPEKGLEWIGSIHWRGTTHYNAPFRGRGRLSIDLSRNQFSLRLTSVTAEDTAVYYCVKHKYHDIVMVVPIAGWFDPWGQGLQVTVSS
VL: EIMMTQSPAILSVSPGDRATLSCRASQSVKNNLAWYQKRPGQAPRLLIFDTSSRASGIPARFSGGGSGTEFTLTVNSMQSEDFATYYCQQYEEWPRTFGQGTKVEIK
B5: 5136_H01 (PGT-131) (antibody, V domains shown)
VH: QVQLQESGPGLVKPSETLSLTCTVSGDSINTGHHYWGWVRQVPGKGPEWIAHIHYNTAVLHNPALKSRVTISIFTLKNLITLSLSNVTAADTAVYFCVRSGGDILYYIEWQKPHWFYPWGPGILVTVSS
VL: QSALTQPPSASGSLGQSLTISCSGTGSDIGSWNFVSWYQQFPGRAPNLIIFEVNRRRSGVPDRFSGSKSGNTASLTVSGLRSEDEAEYFCSSLSGRWDIVFGGGTKVTVL
B6: 5343_B08 (PGT-135) (antibody, V domains shown)
VH: QLQMQESGPGLVKPSETLSLSCTVSGDSIRGGEWGDKDYHWGWVRHSAGKGLEWIGSIHWRGTTHYKESLRRRVSMSIDTSRNWFSLRLASVTAADTAVYFCARHRHHDVFMLVPIAGWFDVWGPGVQVTVSS
VL: EIVMTQSPDTLSVSPGETVTLSCRASQNINKNLAWYQYKPGQSPRLVIFETYSKIAAFPARFVASGSGTEFTLTINNMQSEDVAVYYCQQYEEWPRTFGQGTKVDIK
B7: PGT-128 monoclonal antibody (5114_A19) (antibody, V domains shown)
VH: B1 VH
VL: B1 VL
B8: PGT-130 monoclonal antibody (5147_N06) (antibody, V domains shown)
VH: B2 VH
VL: B2 VL
B9: PGT-136 monoclonal antibody (5329_C19; 5366_P21) (antibody, V domains shown)
VH: B3 VH
VL: B3 VL
B10: PGT-137 monoclonal antibody (5345_I01) (antibody, V domains shown)
VH: B4 VH
VL: B4 VL
B11: PGT-131 monoclonal antibody (5136_H01) (antibody, V domains shown)
VH: B5 VH
VL: B5 VL
B12: PGT-135 monoclonal antibody (5343_B08; 5344_E16) (antibody, V domains shown)
VH: B6 VH
VL: B6 VL

These binders were tested against HIV-1 Env of isolate MG RM-C-013 (subtype C) (HIV-1) (assay: cell-based or functional assay).

B1 and B2 cannot be ordered by “IC50” value: > 50 µg/mL for the first, > 50 µg/mL for the second.

B3 and B4 cannot be ordered by “IC50” value: > 50 µg/mL for the first, > 50 µg/mL for the second.

B5 and B6 cannot be ordered by “IC50” value: > 50 µg/mL for the first, > 50 µg/mL for the second.

What follows are binders tested against HIV-1 Env of isolate MG RM-C-015 (subtype C) (HIV-1) (assay: cell-based or functional assay).

First: B1
Second: B2
The “IC50” value of the first is 1.8-fold lower: 0.196 µg/mL for the first, 0.344 µg/mL for the second.

Compared with B3, B4 is 5.6-fold lower in “IC50” value: 11.1 µg/mL for the first, 1.98 µg/mL for the second.

Going from B5 to B6, the “IC50” value falls from 1.01 µg/mL to 0.104 µg/mL (9.7-fold).

These binders were tested against HIV-1 Env of isolate MG RM-C-010 (subtype C) (HIV-1) (assay: cell-based or functional assay).

B1 and B2 cannot be ordered by “IC50” value: > 50 µg/mL for the first, > 50 µg/mL for the second.

B3 and B4 cannot be ordered by “IC50” value: > 50 µg/mL for the first, > 50 µg/mL for the second.

B5 and B6 cannot be ordered by “IC50” value: > 50 µg/mL for the first, > 50 µg/mL for the second.

These binders were tested against HIV-1 Env of isolate MG RM-C-012 (subtype C) (HIV-1) (assay: cell-based or functional assay).

Going from B1 to B2, the “IC50” value rises from 0.058 µg/mL to > 50 µg/mL.

Going from B3 to B4, the “IC50” value falls from > 50 µg/mL to 0.102 µg/mL.

Compared with B5, B6 is lower in “IC50” value: > 50 µg/mL for the first, 0.017 µg/mL for the second.

What follows are binders tested against HIV-1 Env of isolate MG RM-C-007 (HIV-1) (assay: cell-based or functional assay).

Compared with B7, B8 is higher in “neutralization IC50” value: 0.111 µg/mL for the first, > 50 µg/mL for the second.

B9 and B10 cannot be ordered by “neutralization IC50” value: > 50 µg/mL for the first, > 50 µg/mL for the second.

B11 and B12 cannot be ordered by “neutralization IC50” value: > 50 µg/mL for the first, > 50 µg/mL for the second.

Each binder was assayed against HIV-1 Env of isolate MG RM-C-005 (HIV-1) (assay: cell-based or functional assay).

First: B7
Second: B8
The “neutralization IC50” value of the first is 31-fold lower: 0.03 µg/mL for the first, 0.935 µg/mL for the second.

B9 and B10 cannot be ordered by “neutralization IC50” value: > 50 µg/mL for the first, > 50 µg/mL for the second.

Compared with B11, B12 is higher in “neutralization IC50” value: 1.36 µg/mL for the first, > 50 µg/mL for the second.

Each binder was assayed against HIV-1 Env of isolate MG RM-C-001 (HIV-1) (assay: cell-based or functional assay).

B7 and B8 cannot be ordered by “neutralization IC50” value: > 50 µg/mL for the first, > 50 µg/mL for the second.

Going from B9 to B10, the “neutralization IC50” value rises from 7.52 µg/mL to 21.5 µg/mL (2.9-fold).

Compared with B11, B12 is lower in “neutralization IC50” value: > 50 µg/mL for the first, 10.1 µg/mL for the second.

The binders below were run against HIV-1 Env of isolate MG RM-C-006 (HIV-1) (assay: cell-based or functional assay).

Going from B7 to B8, the “neutralization IC50” value rises from 0.014 µg/mL to 0.095 µg/mL (6.8-fold).

B9 and B10 cannot be ordered by “neutralization IC50” value: > 50 µg/mL for the first, > 50 µg/mL for the second.

First: B11
Second: B12
The “neutralization IC50” value of the first is lower: 0.611 µg/mL for the first, > 50 µg/mL for the second.

These binders were tested against HIV-1 Env of isolate MG RM-C-008 (subtype C) (HIV-1) (assay: cell-based or functional assay).

Going from B2 to B3, the “IC50” value rises from 7.28 µg/mL to > 50 µg/mL.

B4 and B5 cannot be ordered by “IC50” value: > 50 µg/mL for the first, > 50 µg/mL for the second.

For B6, the “IC50” value was > 50 µg/mL.

The binders below were run against HIV-1 Env of isolate MG RM-C-014 (subtype C) (HIV-1) (assay: cell-based or functional assay).

B1 and B2 cannot be ordered by “IC50” value: > 50 µg/mL for the first, > 50 µg/mL for the second.

B3 and B4 cannot be ordered by “IC50” value: > 50 µg/mL for the first, > 50 µg/mL for the second.

B5 and B6 cannot be ordered by “IC50” value: > 50 µg/mL for the first, > 50 µg/mL for the second.

The binders below were run against HIV-1 Env of isolate MG RM-C-017 (subtype C) (HIV-1) (assay: cell-based or functional assay).

First: B1
Second: B2
The “IC50” value of the first is lower: 1.06 µg/mL for the first, > 50 µg/mL for the second.

B3 and B4 cannot be ordered by “IC50” value: > 50 µg/mL for the first, > 50 µg/mL for the second.

B5 and B6 cannot be ordered by “IC50” value: > 50 µg/mL for the first, > 50 µg/mL for the second.

The binders below were run against HIV-1 Env of isolate MG RM-C-002 (HIV-1) (assay: cell-based or functional assay).

Compared with B7, B8 is higher in “neutralization IC50” value: 0.019 µg/mL for the first, > 50 µg/mL for the second.

Compared with B9, B10 is lower in “neutralization IC50” value: > 50 µg/mL for the first, 8.03 µg/mL for the second.

B11 and B12 cannot be ordered by “neutralization IC50” value: > 50 µg/mL for the first, > 50 µg/mL for the second.

The binders below were run against HIV-1 Env of isolate MG RM-C-009 (subtype C) (HIV-1) (assay: cell-based or functional assay).

B1 and B2 cannot be ordered by “IC50” value: > 50 µg/mL for the first, > 50 µg/mL for the second.

B3 and B4 cannot be ordered by “IC50” value: > 50 µg/mL for the first, > 50 µg/mL for the second.

B5 and B6 cannot be ordered by “IC50” value: > 50 µg/mL for the first, > 50 µg/mL for the second.

What follows are binders tested against HIV-1 Env of isolate MG RM-C-004 (HIV-1) (assay: cell-based or functional assay).

Compared with B7, B8 is 110-fold higher in “neutralization IC50” value: 0.025 µg/mL for the first, 2.76 µg/mL for the second.

B9 and B10 are within 1.5-fold of each other in “neutralization IC50” value: 0.034 µg/mL for the first, 0.026 µg/mL for the second.

Compared with B11, B12 is 81-fold lower in “neutralization IC50” value: 3.71 µg/mL for the first, 0.046 µg/mL for the second.

From US20160264649A1 (published 2016)
